Laboratory results taken from patent US20230143215A1 (priority 2020, published 2023).

Experiments:
[1] = system: PBMC from SARS-CoV-2 convalescent donors; test: Memory T cell responses, 4-day IFNγ ELISpot assay; format: cell-based, human; conditions: SLP 3 μM, versus control SLP
PBMC from healthy donors = test: Memory T cell responses, 4-day IFNγ ELISpot assay; format: cell-based, human; conditions: SLP 3 μM, versus control SLP

ALNTLVKQLSSNFGAISSVLNDILSRLDKV
Stimulation Index (SI) ([1]; convalescent donor 1001): 5.80 | Stimulation Index (SI) ([1]; convalescent donor 1003): 2.00 | Stimulation Index (SI) ([1]; convalescent donor 1004): 0.27 | Stimulation Index (SI) ([1]; convalescent donor 1005): 0.67 | Stimulation Index (SI) ([1]; convalescent donor 1006): 5.60 | Stimulation Index (SI) ([1]; convalescent donor 1007): 1.70 | Stimulation Index (SI) ([1]; convalescent donor 1008): 1.25 | Stimulation Index (SI) ([1]; convalescent donor 1010): 6.27 | Stimulation Index (SI) ([1]; convalescent donor 1108): 11.00 | Stimulation Index (SI) (PBMC from healthy donors; healthy donor 2001): 0.00 | Stimulation Index (SI) (PBMC from healthy donors; healthy donor 2002): 0.00 | Stimulation Index (SI) (PBMC from healthy donors; healthy donor 2003): 1.22

GNGGDAALALLLLDRLNQLESKMSGKGQ
Stimulation Index (SI) ([1]; convalescent donor 1001): 17.00 | Stimulation Index (SI) ([1]; convalescent donor 1003): 1.00 | Stimulation Index (SI) ([1]; convalescent donor 1004): 0.38 | Stimulation Index (SI) ([1]; convalescent donor 1005): 13.67 | Stimulation Index (SI) ([1]; convalescent donor 1006): 17.00 | Stimulation Index (SI) ([1]; convalescent donor 1007): 1.00 | Stimulation Index (SI) ([1]; convalescent donor 1008): 0.00 | Stimulation Index (SI) ([1]; convalescent donor 1010): 1.45 | Stimulation Index (SI) ([1]; convalescent donor 1108): 3.00 | Stimulation Index (SI) (PBMC from healthy donors; healthy donor 2001): 0.33 | Stimulation Index (SI) (PBMC from healthy donors; healthy donor 2002): 0.67 | Stimulation Index (SI) (PBMC from healthy donors; healthy donor 2003): 0.67

HSTQDLFLPFFSNVTWFHAIHVSGTN
Stimulation Index (SI) ([1]; convalescent donor 1001): 2.20 | Stimulation Index (SI) ([1]; convalescent donor 1003): 0.00 | Stimulation Index (SI) ([1]; convalescent donor 1004): 0.14 | Stimulation Index (SI) ([1]; convalescent donor 1005): 0.33 | Stimulation Index (SI) ([1]; convalescent donor 1006): 2.20 | Stimulation Index (SI) ([1]; convalescent donor 1007): 4.20 | Stimulation Index (SI) ([1]; convalescent donor 1008): 1.00 | Stimulation Index (SI) ([1]; convalescent donor 1010): 0.27 | Stimulation Index (SI) ([1]; convalescent donor 1108): 8.00 | Stimulation Index (SI) (PBMC from healthy donors; healthy donor 2001): 1.33 | Stimulation Index (SI) (PBMC from healthy donors; healthy donor 2002): 0.00 | Stimulation Index (SI) (PBMC from healthy donors; healthy donor 2003): 0.56

PLVDLPIGINITRFQTLLALHRSYLTPGDSSSG
Stimulation Index (SI) ([1]; convalescent donor 1001): 1.00 | Stimulation Index (SI) ([1]; convalescent donor 1003): 8.00 | Stimulation Index (SI) ([1]; convalescent donor 1004): 0.11 | Stimulation Index (SI) ([1]; convalescent donor 1005): 1.67 | Stimulation Index (SI) ([1]; convalescent donor 1006): 1.00 | Stimulation Index (SI) ([1]; convalescent donor 1007): 5.10 | Stimulation Index (SI) ([1]; convalescent donor 1008): 0.50 | Stimulation Index (SI) ([1]; convalescent donor 1010): 0.73 | Stimulation Index (SI) ([1]; convalescent donor 1108): 4.00 | Stimulation Index (SI) (PBMC from healthy donors; healthy donor 2001): 0.67 | Stimulation Index (SI) (PBMC from healthy donors; healthy donor 2002): 0.33 | Stimulation Index (SI) (PBMC from healthy donors; healthy donor 2003): 0.89

SSPDDQIGYYRRATRRIRGGDGKMKDLS
Stimulation Index (SI) ([1]; convalescent donor 1001): 0.40 | Stimulation Index (SI) ([1]; convalescent donor 1003): 3.00 | Stimulation Index (SI) ([1]; convalescent donor 1004): 0.19 | Stimulation Index (SI) ([1]; convalescent donor 1005): 0.67 | Stimulation Index (SI) ([1]; convalescent donor 1006): 0.40 | Stimulation Index (SI) ([1]; convalescent donor 1007): 0.90 | Stimulation Index (SI) ([1]; convalescent donor 1008): 2.75 | Stimulation Index (SI) ([1]; convalescent donor 1010): 0.18 | Stimulation Index (SI) ([1]; convalescent donor 1108): 4.00 | Stimulation Index (SI) (PBMC from healthy donors; healthy donor 2001): 0.00 | Stimulation Index (SI) (PBMC from healthy donors; healthy donor 2002): 0.67 | Stimulation Index (SI) (PBMC from healthy donors; healthy donor 2003): 0.78

VLNDILSRLDKVEAEVQIDRLITGRLQSLQTY
Stimulation Index (SI) ([1]; convalescent donor 1001): 1.20 | Stimulation Index (SI) ([1]; convalescent donor 1003): 4.00 | Stimulation Index (SI) ([1]; convalescent donor 1004): 0.22 | Stimulation Index (SI) ([1]; convalescent donor 1005): 0.33 | Stimulation Index (SI) ([1]; convalescent donor 1006): 1.20 | Stimulation Index (SI) ([1]; convalescent donor 1007): 0.90 | Stimulation Index (SI) ([1]; convalescent donor 1008): 1.00 | Stimulation Index (SI) ([1]; convalescent donor 1010): 0.64 | Stimulation Index (SI) ([1]; convalescent donor 1108): 64.00 | Stimulation Index (SI) (PBMC from healthy donors; healthy donor 2001): 0.00 | Stimulation Index (SI) (PBMC from healthy donors; healthy donor 2002): 0.00 | Stimulation Index (SI) (PBMC from healthy donors; healthy donor 2003): 0.56
